Assay results published in publication PMC8778449.
The exact form of at least one protein or probe is not confirmed.

Tested on: His-MoBZIP3 (Y34) (Magnaporthe oryzae Y34)
Assay: EMSA
Details: pH and temperature not given, recombinant protein, protein details: His (pET-28a), label: biotin

“ATTACGTATGTACGTATC (double strand) [Bio-A-box]”: binds.
